Structures were worked out from names or drawings and are uncertain.
Target: C. parvum/C. hominis IMPDH (CpIMPDH), recombinant, purified from E. coli (Cryptosporidium parvum, UniProt Q8T6T2)
Conditions: pH 8

Chains of the proteins cited; added tags and fusions are not shown.
UniProt Q8T6T2, whole entry: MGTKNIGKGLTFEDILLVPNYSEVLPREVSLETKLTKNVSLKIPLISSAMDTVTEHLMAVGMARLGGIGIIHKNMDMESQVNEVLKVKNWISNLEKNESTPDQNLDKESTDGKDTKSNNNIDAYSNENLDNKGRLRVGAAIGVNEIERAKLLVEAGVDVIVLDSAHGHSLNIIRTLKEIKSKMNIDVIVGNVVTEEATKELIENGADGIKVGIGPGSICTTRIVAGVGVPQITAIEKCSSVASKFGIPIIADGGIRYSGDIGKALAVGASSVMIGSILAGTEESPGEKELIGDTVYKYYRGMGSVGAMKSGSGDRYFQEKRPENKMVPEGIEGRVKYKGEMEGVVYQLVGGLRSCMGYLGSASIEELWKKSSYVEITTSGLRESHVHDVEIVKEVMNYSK

Molecule CC1CN(C)C(C)c2c1oc1ccc(NC(=O)Cc3nn(C)c(=O)c4ccccc34)cc21 (stereo not shown) has an IC50 of 1.9 µM.

— US9447134B2 (Brandeis University, priority 2012, dated 2016)
